Biological target: SARS-CoV-2 Spike (SARS-CoV-2) (UniProt P0DTC2)
Assay: SPR

| Substance | Kd |
| --- | --- |
| CB6 | 0.183 nM |
| hACE2-Fc | 5.21 nM |

Source: patent US20240343781A1
